# Primary screen of a compound library

Source: ChEMBL document CHEMBL3988442, “University of Dundee, Small-Polar-MMV Screening Library” (2021).

A: 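Whole-cell growth test on Mycobacterium tuberculosis, read after 3 days in glucose-containing 7H9 medium; the read-out is not stated. Concentration: 500 µM. Direction is inferred from retests: higher values go with more growth inhibition. Size under these conditions: about 18,000 compounds, about 1,400 of them at 50% or above in at least one test.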
B: 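Phenotypic screen: M. tuberculosis growth, cholesterol and DPPC medium, 4 days; the read-out is not stated. Compounds at 500 µM. The record gives no direction; compounds that gave an IC50 in retests scored well above the rest, so higher reads as more growth inhibition. Of about 18,000 compounds tested this way, about 900 (5%) reached 50% or more in at least one test.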

Values are the deposited “Percent Effect”, in %.
The controls that fix the scale are not given in the record; negative values are as filed.
This is part of a subset picked to be rich in strong results.
A dash means the value is not listed here; it may have been measured.

{"smiles": "NCCCC1(O)CCC1", "A": 4.486}
{"smiles": "CN(CCOCc1ccccc1)C(=O)c1cc[nH]n1", "B": 11.9}
{"smiles": "NCCc1nc(-c2ccc(F)cc2)c[nH]1", "A": -9.672}
{"smiles": "Cc1ncc(Br)cc1N", "A": -8.421}
{"smiles": "COc1ccccc1CCC(=O)NCCC1CCOC1", "stereo": "centres unmarked", "B": 19.77}
{"smiles": "O=C(Cn1ccnc1)Nc1ccccc1", "A": 3.502, "B": -13.03}
{"smiles": "Cn1ccnc1CN1CCNCC1", "B": 34.37}
{"smiles": "CCOc1cc(CNC)cc(Cl)c1OCC(N)=O", "A": 13.58}
{"smiles": "Cc1ccccc1CNCCS(=O)(=O)N1CCOCC1", "A": -2.891}
{"smiles": "COCCN(Cc1ccsc1)C(=O)[C@@H]1C[C@H](N)CN1C", "A": 43.63}
{"smiles": "N#CCCNCC1CCOC1", "stereo": "centres unmarked", "A": 5.744}
{"smiles": "CC(C)CS(=O)(=O)N1CCC(N)CC1", "A": 33.14, "B": 9.974}
{"smiles": "CN(CC(=O)NC(C)(C)C)C(=O)c1cncc(Br)c1", "B": -15.46}
{"smiles": "NC1CCN(CCC(=O)Nc2ccccc2)CC1", "A": 17.02}
{"smiles": "O=C1CC(O)CCN1", "stereo": "centres unmarked", "A": 4.991}
{"smiles": "CC(C)(C)c1noc(CN2CCC(CO)CC2)n1", "A": 29.86}
{"smiles": "CNCC1CCCN1C(=O)c1cccc(C)c1F", "stereo": "centres unmarked", "A": 11.04}
{"smiles": "CC(N)Cc1nc(-c2ccccc2)no1", "stereo": "centres unmarked", "A": 58.01, "B": 41.8}
{"smiles": "Cc1ccc(N2CCCC(N)C2)cc1", "stereo": "centres unmarked", "A": 41.66}
{"smiles": "Cn1ccc(C(=O)NCc2cccs2)cc1=O", "A": 8.468}
{"smiles": "CN(CC(=O)N1CCNC(=O)C1)Cc1csc(Br)c1", "A": 27.2}
{"smiles": "COc1cccc([C@@H]2C[C@H]2N)c1", "A": 37.21, "B": 50.33}
{"smiles": "O=C(NCCC1=CSC2=NCCCN12)c1cnn[nH]1", "B": 4.228}
{"smiles": "O=C(NCC1CNCCOC1)NC1CCCCC1", "stereo": "centres unmarked", "A": 1.881}
{"smiles": "c1cc(C2CCNCC2)n[nH]1", "B": -4.337}
{"smiles": "CC(C)N(CC(F)F)C(=O)CNC(=O)c1cccs1", "B": -6.718}
{"smiles": "Cc1ccc2nc(CN3CCC[C@H]3CO)cc(O)c2c1", "B": -20.06}
{"smiles": "CCOc1ccccc1NC(=O)N1CCN(C)CC1", "B": 20.92}

Some entries from above, unchanged:

SMILES,A,B
Cn1ccc(C(=O)NCc2cccs2)cc1=O,8.468,-
O=C(NCCC1=CSC2=NCCCN12)c1cnn[nH]1,-,4.228
Cc1ccccc1CNCCS(=O)(=O)N1CCOCC1,-2.891,-
c1cc(C2CCNCC2)n[nH]1,-,-4.337